Assay results from ChEMBL document CHEMBL5346973 (J Med Chem, 2023).

Chains of the proteins cited; added tags and fusions are not shown. Lines headed by an entry give the natural chain unless they say otherwise; changes in a name come on top.
UniProt P43144: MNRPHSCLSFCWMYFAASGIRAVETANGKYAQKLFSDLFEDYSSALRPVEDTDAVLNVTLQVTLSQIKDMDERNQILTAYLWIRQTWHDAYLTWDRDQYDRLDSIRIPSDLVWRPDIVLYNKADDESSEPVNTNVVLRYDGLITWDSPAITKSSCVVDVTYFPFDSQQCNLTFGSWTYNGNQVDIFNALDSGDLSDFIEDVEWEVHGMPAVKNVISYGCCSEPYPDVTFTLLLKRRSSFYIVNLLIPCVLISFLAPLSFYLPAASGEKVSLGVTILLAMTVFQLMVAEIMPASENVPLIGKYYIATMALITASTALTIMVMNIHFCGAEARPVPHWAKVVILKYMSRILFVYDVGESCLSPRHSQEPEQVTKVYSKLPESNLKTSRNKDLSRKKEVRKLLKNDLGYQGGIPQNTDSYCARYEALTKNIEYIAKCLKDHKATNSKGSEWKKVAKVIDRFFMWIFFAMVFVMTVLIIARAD
UniProt Q9JLB5: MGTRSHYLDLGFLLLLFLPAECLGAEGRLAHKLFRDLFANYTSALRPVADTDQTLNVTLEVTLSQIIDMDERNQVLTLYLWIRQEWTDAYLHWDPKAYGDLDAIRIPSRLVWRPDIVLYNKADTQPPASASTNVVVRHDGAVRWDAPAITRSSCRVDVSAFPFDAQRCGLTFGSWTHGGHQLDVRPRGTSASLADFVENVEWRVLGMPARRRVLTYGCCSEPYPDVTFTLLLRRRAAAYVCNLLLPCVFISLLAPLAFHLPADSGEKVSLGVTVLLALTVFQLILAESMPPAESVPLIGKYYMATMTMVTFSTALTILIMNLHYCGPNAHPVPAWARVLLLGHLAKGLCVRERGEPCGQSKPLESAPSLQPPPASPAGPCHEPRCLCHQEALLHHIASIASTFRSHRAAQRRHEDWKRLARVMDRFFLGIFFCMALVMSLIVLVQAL
UniProt Q05941, whole entry, looked up: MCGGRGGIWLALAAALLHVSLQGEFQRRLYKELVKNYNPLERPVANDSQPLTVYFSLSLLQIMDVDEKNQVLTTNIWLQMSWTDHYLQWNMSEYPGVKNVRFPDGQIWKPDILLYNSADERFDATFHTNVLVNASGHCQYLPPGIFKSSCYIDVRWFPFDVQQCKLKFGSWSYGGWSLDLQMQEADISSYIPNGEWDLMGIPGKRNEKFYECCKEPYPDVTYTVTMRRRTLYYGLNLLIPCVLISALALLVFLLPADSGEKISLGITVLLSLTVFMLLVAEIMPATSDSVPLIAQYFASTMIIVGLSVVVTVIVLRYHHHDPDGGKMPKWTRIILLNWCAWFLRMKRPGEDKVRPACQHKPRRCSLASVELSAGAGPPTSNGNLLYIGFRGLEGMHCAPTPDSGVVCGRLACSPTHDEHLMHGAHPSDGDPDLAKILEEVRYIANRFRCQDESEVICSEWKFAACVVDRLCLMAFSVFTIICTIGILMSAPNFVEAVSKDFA

Key:
[1] = target: Nicotinic acetylcholine receptor alpha9/alpha10 (Rattus norvegicus) (UniProt P43144+Q9JLB5); assay: Antagonist activity at rat alpha9alpha10 nACh receptor expressed in Xenopus oocyte assessed as inhibition of acetylcholine-induced response at -70 mV holding potential by measuring ratio of IC50 by voltage-clamp based electrophysiological assay relative to GeXIVA; format: cell-based; conditions: filed as antagonist
Rattus norvegicus = organism: Rattus norvegicus; assay: Selectivity ratio of IC50 for rat alpha7 nACh receptor to IC50 for rat alpha9alpha10 nACh receptor
[2] = target: Neuronal acetylcholine receptor subunit alpha-7 (Rattus norvegicus) (UniProt Q05941); assay: Antagonist activity at rat alpha7 nACh receptor expressed in Xenopus oocyte assessed as inhibition of acetylcholine-induced response at -70 mV holding potential by measuring ratio of IC50 by voltage-clamp based electrophysiological assay relative to GeXIVA; conditions: filed as antagonist

Row | Compound | Ratio IC50 [1] | Ratio IC50 (Rattus norvegicus) | Ratio IC50 [2]
1 | CC[C@H](C)[C@@H]1NC(=O)[C@H](CCCNC(=N)N)NC(=O)[C@H](CCCNC(=N)N)NC(=O)[C@@H](NC(=O)[C@H](Cc2ccc(O)cc2)NC(=O)[C@H](CCCNC(=N)N)NC(=O)[C@H](CCCNC(=N)N)NC(=O)[C@H](C)NC(=O)[C@H](CCCNC(=N)N)NC(=O)[C@H](CC(=O)O)NC(=O)[C@H](Cc2ccc(O)cc2)NC(=O)[C@@H]2CCCN2C(=O)[C@H](CO)NC(=O)[C@H](CCCNC(=N)N)NC(=O)[C@@H]2CSSC[C@H](NC(=O)[C@@H](N)[C@@H](C)O)C(=O)N[C@@H](CCCNC(=N)N)C(=O)N[C@@H](CO)C(=O)N[C@@H](CO)C(=O)NCC(=O)N[C@@H](CCCNC(=N)N)C(=O)N[C@@H](Cc3ccc(O)cc3)C(=O)N2)CSSC[C@@H](C(=O)N[C@H](C(=O)O)C(C)C)NC(=O)[C@H](C)NC(=O)[C@H](CC(=O)O)NC(=O)[C@H]([C@@H](C)O)NC1=O | 1.5 | 168 | 4.7
2 | CC[C@H](C)[C@@H]1NC(=O)[C@H](CCCNC(=N)N)NC(=O)[C@H](CCCNC(=N)N)NC(=O)[C@@H]2CSSC[C@H](NC(=O)[C@H](Cc3ccc(O)cc3)NC(=O)[C@H](CCCNC(=N)N)NC(=O)[C@H](C)NC(=O)[C@H](CO)NC(=O)[C@H](CO)NC(=O)[C@H](CCCNC(=N)N)NC(=O)[C@@H](NC(=O)[C@@H](N)[C@@H](C)O)CSSC[C@@H](C(=O)N[C@H](C(=O)O)C(C)C)NC(=O)[C@H](C)NC(=O)[C@H](CC(=O)O)NC(=O)[C@H]([C@@H](C)O)NC1=O)C(=O)N[C@@H](CCCNC(=N)N)C(=O)N[C@@H](CO)C(=O)N1CCC[C@H]1C(=O)N[C@@H](Cc1ccc(O)cc1)C(=O)N[C@@H](CC(=O)O)C(=O)N[C@@H](CCCNC(=N)N)C(=O)N[C@@H](CCCNC(=N)N)C(=O)N[C@@H](CCCNC(=N)N)C(=O)N[C@@H](CCCNC(=N)N)C(=O)N[C@@H](Cc1ccc(O)cc1)C(=O)N2 | 1.1 | 336 | 2.1
3 | CC[C@H](C)[C@@H]1NC(=O)[C@H](CCCNC(=N)N)NC(=O)[C@H](CCCNC(=N)N)NC(=O)[C@@H]2CSSC[C@H](NC(=O)[C@H](Cc3ccc(O)cc3)NC(=O)[C@H](CCCNC(=N)N)NC(=O)CNC(=O)[C@H](CO)NC(=O)[C@H](CO)NC(=O)[C@H](CCCNC(=N)N)NC(=O)[C@@H](NC(=O)[C@@H](N)[C@@H](C)O)CSSC[C@@H](C(=O)N[C@H](C(=O)O)C(C)C)NC(=O)[C@H](C)NC(=O)[C@H](CC(=O)O)NC(=O)[C@H]([C@@H](C)O)NC1=O)C(=O)N[C@@H](C)C(=O)N[C@@H](CO)C(=O)N1CCC[C@H]1C(=O)N[C@@H](Cc1ccc(O)cc1)C(=O)N[C@@H](CC(=O)O)C(=O)N[C@@H](CCCNC(=N)N)C(=O)N[C@@H](CCCNC(=N)N)C(=O)N[C@@H](CCCNC(=N)N)C(=O)N[C@@H](CCCNC(=N)N)C(=O)N[C@@H](Cc1ccc(O)cc1)C(=O)N2 | 2.2 | 250 | 3.1
4 | CC(C)[C@H](NC(=O)[C@@H]1CSSC[C@H](NC(=O)[C@H](Cc2ccc(O)cc2)NC(=O)[C@H](CCCNC(=N)N)NC(=O)[C@H](CCCNC(=N)N)NC(=O)[C@H](CCCNC(=N)N)NC(=O)[C@H](CCCNC(=N)N)NC(=O)[C@H](CC(=O)O)NC(=O)[C@H](Cc2ccc(O)cc2)NC(=O)[C@@H]2CCCN2C(=O)[C@H](CO)NC(=O)[C@H](CCCNC(=N)N)NC(=O)[C@@H]2CSSC[C@H](NC(=O)[C@@H](N)[C@@H](C)O)C(=O)N[C@@H](CCCNC(=N)N)C(=O)N[C@@H](CO)C(=O)N[C@@H](CO)C(=O)NCC(=O)N[C@@H](CCCNC(=N)N)C(=O)N[C@@H](Cc3ccc(O)cc3)C(=O)N2)C(=O)N[C@@H](CCCNC(=N)N)C(=O)N[C@@H](CCCNC(=N)N)C(=O)N[C@@H](C)C(=O)N[C@@H]([C@@H](C)O)C(=O)N[C@@H](CC(=O)O)C(=O)N[C@@H](C)C(=O)N1)C(=O)O | 1.3 | 88.7 | 2.2
5 | CC[C@H](C)[C@@H]1NC(=O)[C@H](CCCNC(=N)N)NC(=O)[C@H](CCCNC(=N)N)NC(=O)[C@@H](NC(=O)[C@H](Cc2ccc(O)cc2)NC(=O)[C@H](CCCNC(=N)N)NC(=O)[C@H](CCCNC(=N)N)NC(=O)[C@H](CCCNC(=N)N)NC(=O)[C@H](CCCNC(=N)N)NC(=O)[C@H](CC(=O)O)NC(=O)[C@H](Cc2ccc(O)cc2)NC(=O)[C@@H]2CCCN2C(=O)[C@H](CO)NC(=O)[C@H](CCCNC(=N)N)NC(=O)[C@@H]2CSSC[C@H](NC(=O)[C@@H](N)[C@@H](C)O)C(=O)N[C@@H](CCCNC(=N)N)C(=O)N[C@@H](CO)C(=O)N[C@@H](CO)C(=O)N[C@@H](C)C(=O)N[C@@H](CCCNC(=N)N)C(=O)N[C@@H](Cc3ccc(O)cc3)C(=O)N2)CSSC[C@H](C(=O)N[C@H](C(=O)O)C(C)C)NC(=O)[C@H](C)NC(=O)[C@H](CC(=O)O)NC(=O)[C@H]([C@@H](C)O)NC1=O | 0.4 | 142 | 1
6 | CC[C@H](C)[C@@H]1NC(=O)[C@H](CCCNC(=N)N)NC(=O)[C@H](CCCNC(=N)N)NC(=O)[C@@H]2CSSC[C@H](NC(=O)[C@H](Cc3ccc(O)cc3)NC(=O)[C@H](CCCNC(=N)N)NC(=O)CNC(=O)[C@H](C)NC(=O)[C@H](CO)NC(=O)[C@H](CCCNC(=N)N)NC(=O)[C@@H](NC(=O)[C@@H](N)[C@@H](C)O)CSSC[C@@H](C(=O)N[C@H](C(=O)O)C(C)C)NC(=O)[C@H](C)NC(=O)[C@H](CC(=O)O)NC(=O)[C@H]([C@@H](C)O)NC1=O)C(=O)N[C@@H](CCCNC(=N)N)C(=O)N[C@@H](CO)C(=O)N1CCC[C@H]1C(=O)N[C@@H](Cc1ccc(O)cc1)C(=O)N[C@@H](CC(=O)O)C(=O)N[C@@H](CCCNC(=N)N)C(=O)N[C@@H](CCCNC(=N)N)C(=O)N[C@@H](CCCNC(=N)N)C(=O)N[C@@H](CCCNC(=N)N)C(=O)N[C@@H](Cc1ccc(O)cc1)C(=O)N2 | 3.7 | 106 | 2.2
7 | CC[C@H](C)[C@@H]1NC(=O)[C@H](CCCNC(=N)N)NC(=O)[C@H](CCCNC(=N)N)NC(=O)[C@@H](NC(=O)[C@H](Cc2ccc(O)cc2)NC(=O)[C@H](CCCNC(=N)N)NC(=O)[C@H](CCCNC(=N)N)NC(=O)[C@H](CCCNC(=N)N)NC(=O)[C@H](CCCNC(=N)N)NC(=O)[C@H](CC(=O)O)NC(=O)[C@H](Cc2ccc(O)cc2)NC(=O)[C@@H]2CCCN2C(=O)[C@H](CO)NC(=O)[C@H](CCCNC(=N)N)NC(=O)[C@@H]2CSSC[C@H](NC(=O)[C@H](C)N)C(=O)N[C@@H](CCCNC(=N)N)C(=O)N[C@@H](CO)C(=O)N[C@@H](CO)C(=O)NCC(=O)N[C@@H](CCCNC(=N)N)C(=O)N[C@@H](Cc3ccc(O)cc3)C(=O)N2)CSSC[C@@H](C(=O)N[C@H](C(=O)O)C(C)C)NC(=O)[C@H](C)NC(=O)[C@H](CC(=O)O)NC(=O)[C@H]([C@@H](C)O)NC1=O | 0.7 | 140 | 1.7
8 | CC[C@H](C)[C@@H]1NC(=O)[C@H](CCCNC(=N)N)NC(=O)[C@H](CCCNC(=N)N)NC(=O)[C@@H]2CSSC[C@H](NC(=O)[C@H](Cc3ccc(O)cc3)NC(=O)[C@H](CCCNC(=N)N)NC(=O)CNC(=O)[C@H](CO)NC(=O)[C@H](CO)NC(=O)[C@H](CCCNC(=N)N)NC(=O)[C@@H](NC(=O)[C@@H](N)[C@@H](C)O)CSSC[C@@H](C(=O)N[C@@H](C)C(=O)O)NC(=O)[C@H](C)NC(=O)[C@H](CC(=O)O)NC(=O)[C@H]([C@@H](C)O)NC1=O)C(=O)N[C@@H](CCCNC(=N)N)C(=O)N[C@@H](CO)C(=O)N1CCC[C@H]1C(=O)N[C@@H](Cc1ccc(O)cc1)C(=O)N[C@@H](CC(=O)O)C(=O)N[C@@H](CCCNC(=N)N)C(=O)N[C@@H](CCCNC(=N)N)C(=O)N[C@@H](CCCNC(=N)N)C(=O)N[C@@H](CCCNC(=N)N)C(=O)N[C@@H](Cc1ccc(O)cc1)C(=O)N2 | 3.9 | 25.8 | 0.6
9 | CC[C@H](C)[C@@H]1NC(=O)[C@H](CCCNC(=N)N)NC(=O)[C@H](CCCNC(=N)N)NC(=O)[C@@H](NC(=O)[C@H](Cc2ccc(O)cc2)NC(=O)[C@H](CCCNC(=N)N)NC(=O)[C@H](CCCNC(=N)N)NC(=O)[C@H](CCCNC(=N)N)NC(=O)[C@H](CCCNC(=N)N)NC(=O)[C@H](CC(=O)O)NC(=O)[C@H](Cc2ccc(O)cc2)NC(=O)[C@@H]2CCCN2C(=O)[C@H](CO)NC(=O)[C@H](CCCNC(=N)N)NC(=O)[C@@H]2CSSC[C@H](NC(=O)[C@@H](N)[C@@H](C)O)C(=O)N[C@@H](CCCNC(=N)N)C(=O)N[C@@H](CO)C(=O)N[C@@H](CO)C(=O)NCC(=O)N[C@@H](CCCNC(=N)N)C(=O)N[C@@H](Cc3ccc(O)cc3)C(=O)N2)CSSC[C@@H](C(=O)N[C@H](C(=O)O)C(C)C)NC(=O)[C@H](C)NC(=O)[C@@H](C)NC(=O)[C@H]([C@@H](C)O)NC1=O | 1.1 | 112 | 2.2
10 | CC[C@H](C)[C@@H]1NC(=O)[C@H](CCCNC(=N)N)NC(=O)[C@H](CCCNC(=N)N)NC(=O)[C@@H](NC(=O)[C@H](C)NC(=O)[C@H](CCCNC(=N)N)NC(=O)[C@H](CCCNC(=N)N)NC(=O)[C@H](CCCNC(=N)N)NC(=O)[C@H](CCCNC(=N)N)NC(=O)[C@H](CC(=O)O)NC(=O)[C@H](Cc2ccc(O)cc2)NC(=O)[C@@H]2CCCN2C(=O)[C@H](CO)NC(=O)[C@H](CCCNC(=N)N)NC(=O)[C@@H]2CSSC[C@H](NC(=O)[C@@H](N)[C@@H](C)O)C(=O)N[C@@H](CCCNC(=N)N)C(=O)N[C@@H](CO)C(=O)N[C@@H](CO)C(=O)NCC(=O)N[C@@H](CCCNC(=N)N)C(=O)N[C@@H](Cc3ccc(O)cc3)C(=O)N2)CSSC[C@@H](C(=O)N[C@H](C(=O)O)C(C)C)NC(=O)[C@H](C)NC(=O)[C@H](CC(=O)O)NC(=O)[C@H]([C@@H](C)O)NC1=O | 1.3 | 119 | 2.9
